Compound potency records, mixed from different reports. Data source: NIAID ChemDB in PubChem.

Shared fields: whole-cell or culture tests; species: HIV-1; cell line: PBMC; read-out: EC90

An empty or dashed field is not shown. Lines come from different laboratories, so protocols vary. ECn: concentration that inhibits the pathogen or its effect by n%.

CCCCCc1ccc(C#Cc2cn(CC=C(CO)CO)c(=O)[nH]c2=O)cc1 ; strain: LAI ; read by: RT activity ; result: 69.7 µM
C[C@]1(CCP(=O)(O)O)CO[C@@H](n2cnc3c(N)ncnc32)C1 ; strain: LAI ; result: 80 µM
CC(C)(C)NC(=O)[C@@H]1C[C@@H]2CCCC[C@@H]2CN1C[C@@H](O)[C@H](Cc1ccccc1)NC(=O)[C@H](CC(N)=O)NC(=O)c1ccc2ccccc2n1 ; strain: NL4-3 X4 ; read by: p24 ; result: 0.048 µM
CC(C)Nc1cccnc1N1CCN(C(=O)c2cc3cc(NS(C)(=O)=O)ccc3[nH]2)CC1 ; strain: Isolate 458 ; read by: p24 ; result: 7.7 µM
O=C(Nc1cc(S(=O)(=O)O)cc2cc(S(=O)(=O)O)c(N=Nc3ccc(N=Nc4c(S(=O)(=O)O)cc5cc(S(=O)(=O)O)cc(NC(=O)c6cccc(Cl)c6Cl)c5c4O)cc3)c(O)c12)c1ccc(Cl)cc1Cl ; strain: A018A ; result: 3.16 µg/mL
Cc1cn([C@H]2C[C@H](N=[N+]=[N-])[C@@H](CO)O2)c(=O)[nH]c1=O ; strain: 410 clinical isolates AZT-resistant ; read by: p24 ; result: 6.6 µM
CCCCCc1ccc(-c2cc3cn(COCCO)c(=O)nc3o2)cc1 ; strain: LAI ; read by: RT activity ; result: >100 µM
O=C1N(Cc2ccc(CO)cc2)[C@H](Cc2ccccc2)[C@H](O)[C@@H](O)[C@@H](Cc2ccccc2)N1Cc1ccc(CO)cc1 ; strain: HXB2 ; read by: p24 ; result: 0.05 µM
O=c1[nH]cnc2c1ncn2[C@H]1CC[C@@H](CO)O1 ; strain: XM-AZT-resistant ; changes: RT-M41L D67N K70R T215Y K219Q ; read by: p24 ; result: 8.5 µM
O=c1[nH]c(=O)n(COCCO)cc1C#Cc1ccccc1 ; strain: LAI ; read by: RT activity ; result: >100 µM
CCCCN1C(=O)[C@@H]([C@H](O)C2CCCCC2)NC(=O)C12CCN(Cc1ccc(Oc3ccc(C(=O)O)cc3)cc1)CC2 ; strain: BAL R5 ; read by: p24 ; result: 0.012 µM
Cc1cn([C@H]2C[C@H](N=[N+]=[N-])[C@@H](CO)O2)c(=O)[nH]c1=O ; strain: RT-M184V XM-M184V ; changes: RT-M184V ; read by: p24 ; result: 0.02 µM
CC(C)=CCN1Cc2cccc3[nH]c(=S)n(c23)C[C@@H]1C ; strain: Subtype B isolate ; read by: RT activity ; result: 0.44 µM
CC(C)Nc1cccnc1N1CCN(C(=O)c2cc3cc(NS(C)(=O)=O)ccc3[nH]2)CC1 ; strain: 472 clinical isolates AZT-resistant ; read by: p24 ; result: >10 µM
Cc1cccc(C)c1OCC(=O)N[C@@H](Cc1ccccc1)[C@@H](O)C[C@H](Cc1ccccc1)NC(=O)[C@H](C(C)C)N1CCCNC1=O ; strain: HXB2 ; changes: PR-M46I L63P A71V V82F I84V ; read by: p24 ; result: 0.54 µM
C[C@]1(/C=C/P(=O)(O)O)CO[C@@H](n2cnc3c(N)ncnc32)C1 ; strain: LAI ; result: 90 µM
Cc1c(O)cccc1C(=O)N[C@@H](CSc1ccccc1)[C@H](O)CN1C[C@H]2CCCC[C@H]2C[C@H]1C(=O)NC(C)(C)C ; strain: BAL R5 ; read by: p24 ; result: 0.105 µM
CC(C)(C)NC(=O)[C@@H]1C[C@@H]2CCCC[C@@H]2CN1C[C@@H](O)[C@H](Cc1ccccc1)NC(=O)[C@H](CC(N)=O)NC(=O)c1ccc2ccccc2n1 ; strain: BR60 (PR L10I K20R M36I/V P63L/S L90M) ; changes: PR-L10I K20R M36I/V P63L/S L90M ; read by: p24 ; result: 0.016 µM
Nc1ccn([C@H]2CC[C@@H](CO)O2)c(=O)n1 ; strain: JR-CSF ; read by: p24 ; result: 0.153 µM
CCCCCc1cc2cn(COCCO)c(=O)nc2o1 ; strain: LAI ; read by: RT activity ; result: 19.8 µM
Cc1ncnc(C)c1C(=O)N1CCC(C)(N2CCN([C@@H](Cc3ccccc3)c3ccc(C(F)(F)F)cc3)[C@@H](C)C2)CC1 ; strain: ADA-M Clinical isolates ; result: 0.00004 µM
CCCCCc1ccc(C#Cc2cn(COCCO)c(=O)[nH]c2=O)cc1 ; strain: LAI ; read by: RT activity ; result: >100 µM
Nc1ccn([C@@H]2S[C@H](CO)C=C2F)c(=O)n1 ; strain: xxBRU ; result: 5 µM
Cc1cn([C@H]2C[C@H](N=[N+]=[N-])[C@@H](CO)O2)c(=O)[nH]c1=O ; strain: Subtype B isolate ; read by: RT activity ; result: <0.03 µM
CCC[C@@H](c1ccc(C(F)(F)F)cc1)N1CCN(C2(C)CCN(C(=O)c3c(C)ncnc3C)CC2)C[C@@H]1C ; strain: RU570 Clinical isolates ; result: 0.00043 µM
Nc1ccn([C@H]2CC[C@@H](CO)O2)c(=O)n1 ; strain: IIIB ; read by: p24 ; result: 0.08 µM
Cc1cn([C@H]2C[C@H](N=[N+]=[N-])[C@@H](CO)O2)c(=O)[nH]c1=O ; strain: LAI ; read by: RT activity ; result: 0.2 µM
CCO/N=C(\c1ccc(Br)cc1)C1CCN(C2(C)CCN(C(=O)c3c(C)cc[n+]([O-])c3C)CC2)CC1 ; strain: JR-FL R5 ; read by: p24 ; result: 0.056 µM
CCN(c1ncccc1NC(C)(C)C)C1CCN(C(=O)c2cc3cc(NS(C)(=O)=O)ccc3[nH]2)CC1 ; strain: Isolate 410 ; read by: p24 ; result: 1.1 µM
CSC[C@H](NC(=O)COc1cccc2cnccc12)C(=O)N[C@@H](Cc1ccccc1)[C@H](O)C(=O)N1CSC(C)(C)[C@H]1C(=O)NC(C)(C)C ; strain: Clinical isolates ; read by: p24 ; result: 0.04 µM
Nc1nc2c(ncn2COCCO)c(=O)[nH]1 ; strain: LAI ; read by: RT activity ; result: >100 µM
Nc1ccn([C@H]2S[C@@H](CO)C=C2F)c(=O)n1 ; strain: xxBRU ; result: 1.4 µM
Cc1c(O)cccc1C(=O)N[C@@H](CSc1ccccc1)[C@H](O)CN1C[C@H]2CCCC[C@H]2C[C@H]1C(=O)NC(C)(C)C ; strain: HXB2 ; changes: PR-L10R M46I L63P V82T I84V ; read by: p24 ; result: 0.25 µM
CC(C)(C)NC(=O)[C@@H]1CSCN1C(=O)[C@@H](O)[C@H](Cc1ccccc1)NC(=O)[C@H](CC(N)=O)NC(=O)COc1cccc2ccccc12 ; strain: Clinical isolates ; read by: p24 ; result: 0.24 µM

The first 2 rows once more:

SMILES	strain	changes	read by	result
CCCCCc1ccc(C#Cc2cn(CC=C(CO)CO)c(=O)[nH]c2=O)cc1	LAI		RT activity	69.7 µM
C[C@]1(CCP(=O)(O)O)CO[C@@H](n2cnc3c(N)ncnc32)C1	LAI			80 µM